Assay results reported in patent US20230175044.
Tags and fusion partners may be left off the protein sequences shown.

Molecular target: T1, PstI (UniProt P00640)
T1 sequence (looked up, limits assumed): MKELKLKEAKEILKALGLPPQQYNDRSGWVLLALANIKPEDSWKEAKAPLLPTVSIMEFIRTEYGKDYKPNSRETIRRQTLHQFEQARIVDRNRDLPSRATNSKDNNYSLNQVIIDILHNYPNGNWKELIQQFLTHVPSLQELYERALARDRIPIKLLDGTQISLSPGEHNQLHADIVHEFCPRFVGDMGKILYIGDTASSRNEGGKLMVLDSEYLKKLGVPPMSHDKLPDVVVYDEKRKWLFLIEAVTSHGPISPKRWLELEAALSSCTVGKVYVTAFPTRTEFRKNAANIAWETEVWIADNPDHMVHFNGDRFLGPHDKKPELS
Assay: enzyme reaction in vitro
Details: electrochemical turn-on; PURExpress, 37 C; little crosstalk; protein translated in vitro; label: 3' methylene blue on reporter; only the site is given

## GTTCTGAAGCTCCTGCAGGTGACATGCCT (double strand) [PstI reporter/inhibitor duplex]
  activity on this sequence: active
